Measured values from several laboratories, pooled; numbers as filed in NIAID ChemDB.

Common to all: whole-cell or culture tests; species: HIV-1; read by: p24; measure: EC50

Neighbouring rows are from separate reports.

Cc1cn([C@H]2C[C@H](N=[N+]=[N-])[C@@H](CO)O2)c(=O)[nH]c1=O ; strain or isolate: Ba-L Laboratory isolate ; cells: PBMC ; value: 0.011 µM
O=c1[nH]cnc2c1ncn2[C@H]1CC[C@@H](CO)O1 ; strain or isolate: MN ; cells: PBL ; value: 0.38 µM
Cc1cn([C@H]2C[C@H](N=[N+]=[N-])[C@@H](CO)O2)c(=O)[nH]c1=O ; strain or isolate: C011590 ; cells: PBMC ; value: 0.02 µM
CCc1cc(NCc2nc3ccccc3o2)c(=O)[nH]c1C ; strain or isolate: IIIB ; cells: H9 ; value: <0.9 µM
O=C1N(Cc2ccc(CO)cc2)[C@H](Cc2ccccc2)[C@H](O)[C@@H](O)[C@@H](Cc2ccccc2)N1Cc1ccc(CO)cc1 ; strain or isolate: Clinical isolate P ; cells: PBMC ; value: 0.11 µM
Cc1ccc(NC(=O)Nc2ccc(-c3ccc(NC(=O)Nc4ccc(-c5ccc(NC(=O)Nc6ccc(-c7ccc(NC(=O)Nc8ccc(-c9ccc(NC(=O)Nc%10ccc(-c%11ccc(NC(=O)Nc%12ccc(C)cc%12)cc%11S(=O)(=O)O)c(S(=O)(=O)O)c%10)cc9S(=O)(=O)O)c(S(=O)(=O)O)c8)cc7S(=O)(=O)O)c(S(=O)(=O)O)c6)cc5S(=O)(=O)O)c(S(=O)(=O)O)c4)cc3S(=O)(=O)O)c(S(=O)(=O)O)c2)cc1 ; strain or isolate: GB8 ; cells: JM ; value: 0.16 µM
Cc1cn([C@H]2C[C@H](N=[N+]=[N-])[C@@H](CO)O2)c(=O)[nH]c1=O ; changes: RT-I178L T215Y ; strain or isolate: NL4-3 ; cells: MT-2 ; value: 0.003 µM
O=c1[nH]cnc2c1ncn2[C@H]1CC[C@@H](CO)O1 ; changes: RT-P119S ; strain or isolate: P119S(RT-P119S) ; cells: MT-2 ; value: 1.3 µM
Cc1c(O)cccc1C(=O)N[C@@H](CSc1ccccc1)[C@H](O)CN1C[C@H]2CCCC[C@H]2C[C@H]1C(=O)NC(C)(C)C ; changes: PR-L10I I15V K20R M36I M46L I54V K55R I62V L63P K70Q V82A L89M ; strain or isolate: Clinical isolate ; cells: PBMC ; value: 0.33 µM
C=C(C)OC(=O)N1c2cc(Cl)ccc2NC(=S)C1(C)C ; strain or isolate: MN ; cells: H9 ; value: 0.007 µM
COC(=O)[C@H](C)NP(=O)(OC[C@@H]1CC[C@H](n2cnc3c(N)ncnc32)O1)Oc1ccccc1 ; strain or isolate: BaL ; cells: MM + M/M ; value: 0.005 µM
C[C@H]1/C=C/[C@@]2(C)CC[C@@H](C(C)(C)O)[C@@H]2[C@@H](O)C[C@](C)(O)/C=C/C1 ; strain or isolate: BAL R5 ; cells: Macrophage + Macrophages ; value: 1.7 µM
CC(C)(C)NC(=O)[C@@H]1CN(Cc2cccnc2)CCN1C[C@@H](O)C[C@@H](Cc1ccccc1)C(=O)N[C@H]1c2ccccc2C[C@H]1O ; changes: PR-L10I K20R M36I/V P63L/S L90M ; strain or isolate: BR60 (PR L10I K20R M36I/V P63L/S L90M) ; cells: PBMC ; value: 0.008 µM
Nc1ncnc2c1ncn2[C@@H]1O[C@H](CO)C[C@@H]1F ; changes: RT-L214F ; strain or isolate: L214F(RT-L214F) ; cells: MT-2 ; value: 4.4 µM
Cc1cc(C)c(-n2nnnc2SCC(=O)Nc2ccc(C)cc2Br)c(C)c1 ; cells: MT-4 ; value: <10 µM
CCc1cc(NCc2nc3c(Cl)ccc(Cl)c3o2)c(=O)[nH]c1C ; strain or isolate: IIIB ; cells: H9 ; value: <0.1 µM
O=C1N(Cc2ccc(CO)cc2)[C@H](Cc2ccccc2)[C@H](O)[C@@H](O)[C@@H](Cc2ccccc2)N1Cc1ccc(CO)cc1 ; changes: PR-M46I V82T I84V ; strain or isolate: NL4-3 ; cells: MT-4 ; value: <1.5 µM
CCc1cc(NCc2nc3c(Cl)ccc(Cl)c3o2)c(=O)[nH]c1C ; changes: RT-V106A ; strain or isolate: NL4-3 ; cells: MT-4 ; value: 0.1 µM
Nc1ncnc2c1ncn2[C@H]1CC[C@@H](CO)O1 ; strain or isolate: IIIB ; cells: PBL ; value: 0.24 µM
CC(C)(C)OC(=O)N[C@@H](Cc1ccccc1)[C@H](O)CNC[C@@H](O)[C@H](Cc1ccccc1)NC(=O)C(C)(O)C(C)(C)C ; strain or isolate: IIIB ; cells: PBMC ; value: 0.04 µM
CC(C)c1ccccc1-n1nnnc1SCC(=O)Nc1ccccc1Cl ; cells: MT-4 ; value: <10 µM
Nc1ccn([C@H]2CC[C@@H](CO)O2)c(=O)n1 ; strain or isolate: HXB2D ; cells: MT-2 ; value: 0.3 µM
Nc1nc(=O)n([C@H]2CO[C@@H](CO)S2)cc1F ; strain or isolate: IIIB ; cells: MT-4 ; value: 3.2 µM
CC(C)c1nc(CN(C)C(=O)N[C@H](C(=O)N[C@@H](Cc2ccccc2)C[C@H](O)[C@H](Cc2ccccc2)NC(=O)OCc2cncs2)C(C)C)cs1 ; changes: PR-L10I K43T M46L I54L L63P A71T V82A L90M Q92K ; strain or isolate: Clinical isolate ; cells: PBMC ; value: >1 µM
CC(=O)N1CCC(C(=O)N(CCCN2CCC(Cc3ccc(C(N)=O)cc3)CC2)c2ccc(C)c(Cl)c2)CC1 ; strain or isolate: HKW R5 clinical isolate ; cells: PBMC ; value: 0.0017 µM
c1cc(CN2CCCNCCNCCCNCC2)ccc1CN1CCCNCCNCCCNCC1 ; strain or isolate: NL4-3 X4 laboratory isolate ; cells: PBMC ; value: 0.022 µM
CC(C)(C)NC(=O)[C@@H]1CN(Cc2cccnc2)CCN1C[C@@H](O)C[C@@H](Cc1ccccc1)C(=O)N[C@H]1c2ccccc2C[C@H]1O ; strain or isolate: Ba-L Laboratory isolate ; cells: PBMC ; value: 0.017 µM
CC(C)(C)NC(=O)[C@@H]1C[C@@H]2CCCC[C@@H]2CN1C[C@@H](O)[C@H](Cc1ccccc1)NC(=O)[C@H](CC(N)=O)NC(=O)c1ccc2ccccc2n1 ; changes: PR-L10R M46I L63P V82T ; strain or isolate: NL4-3 ; cells: MT-4 ; value: <0.025 µM
Nc1nc(=O)n([C@@H]2CO[C@H](CO)S2)cc1F ; strain or isolate: IIIB ; cells: H9 ; value: 0.1 µM
Cc1cc(C)c(-n2nnnc2SCC(=O)Nc2cc([N+](=O)[O-])ccc2Cl)c(C)c1 ; cells: MT-4 ; value: <10 µM
Nc1ccn([C@H]2CC[C@@H](CO)O2)c(=O)n1 ; changes: RT-M184V ; strain or isolate: IIIB 3TC (RT-M184V) ; cells: MT-4 ; value: 2.5 µM
Cc1cn([C@H]2C[C@H](N=[N+]=[N-])[C@@H](CO)O2)c(=O)[nH]c1=O ; strain or isolate: CC5 Clinical isolates ; value: 0.008 µM
O=c1[nH]cnc2c1ncn2[C@@H]1O[C@H](CO)C[C@@H]1F ; changes: RT-P119S V179D L214F ; strain or isolate: RT P119S V179D L214F ; cells: MT-2 ; value: 29 µM
CCO/N=C(\c1ccc(Br)cc1)C1CCN(C2(C)CCN(C(=O)c3c(C)cc[n+]([O-])c3C)CC2)CC1 ; strain or isolate: 93UG082 R5 CLADE D ; cells: PBMC ; value: 0.00095 µM
Cc1cc(C)c(-n2nnnc2SCC(=O)Nc2ccccc2I)c(C)c1 ; cells: MT-4 ; value: <10 µM
COc1ccc2c(c1)N(C(=O)OC(C)C)[C@@H](CSC)C(=S)N2 ; strain or isolate: D34 ; cells: PBL ; value: 0.002 µM
O=c1c2ccccc2n2nnc3ccc(NCCCN4CCN(CCCNc5ccc6nnn7c8ccccc8c(=O)c5c67)CC4)c1c32 ; strain or isolate: ADA ; cells: MM + M/M ; value: 0.005 µM

Again, the opening 6 rows:

| smiles | changes | strain or isolate | cells | value |
|---|---|---|---|---|
| Cc1cn([C@H]2C[C@H](N=[N+]=[N-])[C@@H](CO)O2)c(=O)[nH]c1=O | - | Ba-L Laboratory isolate | PBMC | 0.011 µM |
| O=c1[nH]cnc2c1ncn2[C@H]1CC[C@@H](CO)O1 | - | MN | PBL | 0.38 µM |
| Cc1cn([C@H]2C[C@H](N=[N+]=[N-])[C@@H](CO)O2)c(=O)[nH]c1=O | - | C011590 | PBMC | 0.02 µM |
| CCc1cc(NCc2nc3ccccc3o2)c(=O)[nH]c1C | - | IIIB | H9 | <0.9 µM |
| O=C1N(Cc2ccc(CO)cc2)[C@H](Cc2ccccc2)[C@H](O)[C@@H](O)[C@@H](Cc2ccccc2)N1Cc1ccc(CO)cc1 | - | Clinical isolate P | PBMC | 0.11 µM |
| Cc1ccc(NC(=O)Nc2ccc(-c3ccc(NC(=O)Nc4ccc(-c5ccc(NC(=O)Nc6ccc(-c7ccc(NC(=O)Nc8ccc(-c9ccc(NC(=O)Nc%10ccc(-c%11ccc(NC(=O)Nc%12ccc(C)cc%12)cc%11S(=O)(=O)O)c(S(=O)(=O)O)c%10)cc9S(=O)(=O)O)c(S(=O)(=O)O)c8)cc7S(=O)(=O)O)c(S(=O)(=O)O)c6)cc5S(=O)(=O)O)c(S(=O)(=O)O)c4)cc3S(=O)(=O)O)c(S(=O)(=O)O)c2)cc1 | - | GB8 | JM | 0.16 µM |

Blank or dashed fields: not listed here. ECn: concentration that inhibits the pathogen or its effect by n%.